Where “and” joins values, the source holds several entries; their conditions need not be identical. Identical values can stand only once. The match of structure and compound is tentative.
Assays:
[1] = molecular target: T1, TraR (Agrobacterium tumefaciens, UniProt P33905)
[2] = molecular target: T2, LasR (Pseudomonas aeruginosa, UniProt P25084); conditions: 5 μM synthetic ligand against 7.5 nM OdDHL; E. coli DH5α (pJN105L pSC11); normalized to OdDHL
[3] = molecular target: T2, LasR; conditions: 5 μM ligand; E. coli DH5α (pJN105L pSC11); normalized to OdDHL
[4] = molecular target: T1, TraR; conditions: 10 μM ligand; A. tumefaciens WCF47 (pCF372); normalized to OOHL

The chains behind the UniProt entries cited, without tags or fusion partners.
UniProt P33905, whole entry: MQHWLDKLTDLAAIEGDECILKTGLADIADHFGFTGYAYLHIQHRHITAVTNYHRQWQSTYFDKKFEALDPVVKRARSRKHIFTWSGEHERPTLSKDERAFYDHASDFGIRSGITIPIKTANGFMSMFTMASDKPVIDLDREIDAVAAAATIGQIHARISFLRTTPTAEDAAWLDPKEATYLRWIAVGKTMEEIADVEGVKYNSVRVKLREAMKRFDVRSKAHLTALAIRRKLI
UniProt P25084, whole entry: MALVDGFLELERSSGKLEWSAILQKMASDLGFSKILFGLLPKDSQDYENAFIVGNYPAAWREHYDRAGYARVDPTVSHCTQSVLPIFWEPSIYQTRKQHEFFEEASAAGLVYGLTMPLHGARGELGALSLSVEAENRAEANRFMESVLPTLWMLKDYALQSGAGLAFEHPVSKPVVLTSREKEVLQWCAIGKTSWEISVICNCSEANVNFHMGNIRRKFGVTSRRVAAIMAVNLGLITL

| Compound | IC50 ([1]; read-out: TraR IC50, determined against 100 nM OOHL) | E. coli-LasR Inhibition [%] [2] | E. coli-LasR Activation [%] [3] | A. tumefaciens-TraR Inhibition [%] ([1]; 10 μM synthetic ligand against 100 nM OOHL, A. tumefaciens WCF47 (pCF372), normalized to OOHL) | A. tumefaciens-TraR Activation [%] [4] |
| --- | --- | --- | --- | --- | --- |
| O=C(Cc1ccc(I)cc1)N[C@H]1CCOC1=O [B13] | 1.26 µM | 36% and 21% | 0% | – | – |
| O=C(CCc1ccc(Br)cc1)N[C@H]1CCOC1=O | – | – | – | 93% | 2% |
